Test results taken from paper PMC6459835, “The RNA binding activity of the first identified trypanosome protein with Z-DNA-binding domains”.

Target: T1, RBP7910 WT (Trypanosoma brucei) (UniProt Q38AH3)
T1 sequence (looked up): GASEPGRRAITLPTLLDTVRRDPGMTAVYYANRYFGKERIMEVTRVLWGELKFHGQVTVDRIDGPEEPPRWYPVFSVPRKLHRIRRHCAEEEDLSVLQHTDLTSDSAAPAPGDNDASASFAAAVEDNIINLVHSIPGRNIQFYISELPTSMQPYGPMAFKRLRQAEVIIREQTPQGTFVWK
Test: competition with a labelled probe
Conditions: 10-fold molar excess vs labeled gA6[14], text calls it more efficient than pre-edited CYb; RBB50: 20 mM Tris-HCl pH 7.6, 50 mM KCl, 5 mM MgCl2, 10% glycerol, 1 mM DTT, plus 100 mM KCl and 20 U RNasin; 20 ul, 30 min, RT; recombinant protein; residues 9-189; protein details: N-terminal 6xHis (pET30-a); label: 32P (UTP body or 3' pCp), unlabeled as competitor; letters put together from the …

## GGGAAAUAUGUUUUUUCGUGUUAGAUUUUUGUUAUUUUUUUUAUUAUUUAGAAAUUUAUGUUGUCUUUUUA [CYb edited mRNA]
  binding signal (% reduction of bound labeled gA6[14]): 30

For at least one entry, the source does not settle the construct or the ends of the probe. Where a protein sequence is shown, tags need not be part of it.
